Results: article doi:10.1101/497123

What was measured:
[1] = molecular target: full length H7 HA trimer (influenza A virus, subtype H7 (strain not stated)); experiment: BLI
[2] = molecular target: full length H3 HA trimer (influenza A virus, subtype H3 (strain not stated)); experiment: BLI

## MEDI8852 Fab
[1]
  Kd: 1.2 nM
  koff: 0.00013 s⁻¹
[2]
  Kd: 1.2 nM
  koff: 0.00015 s⁻¹
